Data as given in US20240042018A1 (University of Washington, published 2024).

Target: I53-50B.4PT1 pentamer
Experiment: in vitro nanoparticle assembly, SEC and SDS-PAGE

B1: H1MI15-I53-50A trimer (A/Michigan/45/2015 HA 1-676 Y98F) (other)
chain: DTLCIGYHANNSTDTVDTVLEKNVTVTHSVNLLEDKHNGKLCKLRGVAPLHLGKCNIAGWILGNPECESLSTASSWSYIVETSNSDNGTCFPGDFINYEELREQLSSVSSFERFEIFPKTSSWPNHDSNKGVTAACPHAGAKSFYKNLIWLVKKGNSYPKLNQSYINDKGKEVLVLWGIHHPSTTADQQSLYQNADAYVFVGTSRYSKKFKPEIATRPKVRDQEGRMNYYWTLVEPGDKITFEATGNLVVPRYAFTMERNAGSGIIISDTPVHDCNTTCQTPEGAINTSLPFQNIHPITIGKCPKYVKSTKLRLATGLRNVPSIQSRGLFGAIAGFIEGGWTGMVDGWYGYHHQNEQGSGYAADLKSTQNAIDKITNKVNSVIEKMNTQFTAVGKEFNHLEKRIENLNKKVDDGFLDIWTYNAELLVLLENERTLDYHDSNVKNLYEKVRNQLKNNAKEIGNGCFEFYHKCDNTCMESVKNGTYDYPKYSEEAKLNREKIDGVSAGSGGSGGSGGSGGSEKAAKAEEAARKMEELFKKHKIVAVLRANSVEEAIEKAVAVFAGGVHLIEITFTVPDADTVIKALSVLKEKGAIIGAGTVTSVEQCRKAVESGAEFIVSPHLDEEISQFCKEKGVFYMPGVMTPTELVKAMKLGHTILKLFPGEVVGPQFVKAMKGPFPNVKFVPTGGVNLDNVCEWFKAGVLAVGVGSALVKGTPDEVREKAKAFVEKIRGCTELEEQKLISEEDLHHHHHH
  binding result: binds
